Values from PubChem BioAssay AID504761 (Drosophila RNAi Screening Center, 2011).

- Screen: 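Genome-wide fly cell screen for genes dengue virus requires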 (primary screen)
- System: D.Mel-2 cells from Drosophila
- Reagents: long dsRNA against Drosophila genes
- Treatment: infection with dengue virus type 2; dose and infection time not stated
- Detection: 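Per well on two replicate plates, imaging gave the percent of cells positive for viral envelope protein, ranked by infection, and a nuclear count of cells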
- Direction: infection score: higher = more virus-infected cells; cell count: higher = more cells in the well
- Rule for the call: 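Very low infection ranking in both replicate wells (chance probability at most 0.065), then a retest showing infection dropped 1.5-fold or more at p below 0.05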
- Calls: active = confirmed: knock-down lowers infection; inactive = not picked or not confirmed
The screen tested about 22,000 reagents; shown is a random part of those with a known target gene and a result. Over the whole deposit, 116 (0.52%) are marked active. 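Calls depend on retest data that are not deposited; infection was ranked per plate without normalising between plates; the unit of the infection score is not given.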 Raw values are not corrected between plates. A number with no mark means an inactive call. Not all columns of the deposit are shown. Not stated in the record: the amount of reagent, the time to read-out.

Silencing of CG17329 [SID104181718] gave: infection score, replicate 1 = 6.48; cell count, replicate 1 = 6128.
CG17329 [SID104206909] gave infection score, replicate 1 = 12.4; cell count, replicate 1 = 5377.
After knock-down of CG34460 [SID104186766], the record shows infection score, replicate 1 = 10.3; cell count, replicate 1 = 6539.
mRpS25 [SID104199390] gave infection score, replicate 1 = 9.46; cell count, replicate 1 = 6034.
Depletion of G6P [SID104205665] resulted in: infection score, replicate 1 = 9.15; cell count, replicate 1 = 5857.
Silencing of TTLL5 [SID104193973] came out at: infection score, replicate 1 = 5.21; cell count, replicate 1 = 5782.
BomS3 [SID104201197] scored infection score, replicate 1 = 0.33; cell count, replicate 1 = 5974.
With knock-down of BomS3 [SID104207164], the record shows infection score, replicate 1 = 6.75; cell count, replicate 1 = 993.
pns [SID104188390] gave infection score, replicate 1 = 3.36; cell count, replicate 1 = 5931.

No new results follow: entries from further up.
CG34460 [SID104186766]: infection score, replicate 1 = 10.3; cell count, replicate 1 = 6539
mRpS25 [SID104199390]: infection score, replicate 1 = 9.46; cell count, replicate 1 = 6034
G6P [SID104205665]: infection score, replicate 1 = 9.15; cell count, replicate 1 = 5857
TTLL5 [SID104193973]: infection score, replicate 1 = 5.21; cell count, replicate 1 = 5782

The results go on:
Against CG13791 (retired record) [SID104182087], the entry reads infection score, replicate 1 = 4.41; cell count, replicate 1 = 6211.
With knock-down of toe [SID104188966] the results were infection score, replicate 1 = 1.6; cell count, replicate 1 = 6269.
Depletion of Piezo [SID104182884] resulted in: infection score, replicate 1 = 7.31; cell count, replicate 1 = 5989.
Knock-down of Mbs [SID104189206] gave: infection score, replicate 1 = 2.45; cell count, replicate 1 = 5644.
Mbs [SID104190317] showed infection score, replicate 1 = 7.84; cell count, replicate 1 = 6023.
Depletion of Mbs [SID104190345] gave: infection score, replicate 1 = 1.74; cell count, replicate 1 = 6424.
Mbs [SID104203210] scored infection score, replicate 1 = 10.5; cell count, replicate 1 = 6059.
For zetaCOP [SID104191204], the entry reads infection score, replicate 1 = 0.27; cell count, replicate 1 = 1498.
For Ppm1 [SID104188052], the entry reads infection score, replicate 1 = 3.14; cell count, replicate 1 = 6176.
For Ppm1 [SID104206336], the values are infection score, replicate 1 = 5.08; cell count, replicate 1 = 6931.
Knock-down of CG43740 [SID104202624] gave: infection score, replicate 1 = 2.83; cell count, replicate 1 = 5805.
Depletion of cer [SID104185784] came out at: infection score, replicate 1 = 0.93; cell count, replicate 1 = 6122.
